Measured values from several laboratories, pooled; numbers as filed in NIAID ChemDB.

Shared fields: host cell toxicity; endpoint: CC50

Lines come from different laboratories, so protocols vary. An empty or dashed field is not shown. a–b is a range or a potency band. CCn: concentration that lowers growth or viability of the cells by n%.

smiles,conditions,read by,cells,result
CC(=O)NCC(=O)O/N=C1\c2ccccc2-c2c1c(N1CCN(c3ccccn3)CC1)nc1ccc(Br)cc21,,MTT,U-937,>10 µg/mL
C[C@H]1C(OC(=O)c2ccccc2)O[C@@H]2OC3(C)CCC4[C@H](C)CCC1[C@]42OO3,,ATP / luminescence,HEK 293,>26 µM
COC(=O)c1ccc(C(=O)NC2N=C(c3ccccc3)c3ccccc3NC2=O)cc1,,,HEP-2,6.5 µM
CCOC(=O)c1ccc2c(c1)nc(-c1ccc(N(C)C)cc1)n2CCN1CCCOC1,,MTT,Vero cell,>62.5 µg/mL
Cc1cc([N+](=O)[O-])c(C)c2c1[nH]c1cc(Cl)ccc12,,,TZM-bl,22.7 µM
O=C(Nc1cccc(Cl)c1)NC1N=C(c2ccccc2)c2ccccc2NC1=O,,,HEP-2,9.6 µM
CCCCCC(=O)O/N=C1\c2ccccc2-c2c1c(N1CCN(c3ccccn3)CC1)nc1ccc(Br)cc21,,MTT,U-937,>20 µg/mL
Nc1ncnc2c1c(Br)cn2[C@@H]1O[C@H](CO)[C@@H](O)[C@H]1O,,,PRK,0.4 µg/mL
CCCc1cc(=O)oc2c3c(c4c(c12)OC(C)(C)C=C4)O[C@H](C)[C@@H](C)[C@@H]3O,,,AA5,10–20 µM
Nc1nc(NC2CC2)c2ncn([C@H]3C=C[C@@H](CO)C3)c2n1,,,HB611,>200 µM
Cc1cn([C@H]2C[C@H](N=[N+]=[N-])[C@@H](CO)O2)c(=O)[nH]c1=O,,trypan blue,H9,>10 µg/mL
O=C(Nc1nc(-c2ccccn2)cs1)C1CC1,,luminescence,VERO,>100 µM
Cc1nc2ccccc2n1C1C[C@H]2CC[C@@H](C1)N2CC[C@H](NC(=O)C1CCOCC1)c1ccccc1,,,HEK,>1 µM
CC(C)OC(=O)[C@H](C)N[P@](=O)(OC[C@H]1O[C@@](C#N)(c2ccc3c(N)ncnn23)[C@](C)(O)[C@@H]1OC(=O)C(C)C)Oc1ccccc1,,ATP,AD38,>100 µM
CCOC(=O)c1ccc2nc(-c3ccc(O)c(OC)c3)[nH]c2c1,,MTT,Vero cell,>62.5 µg/mL
COC1=CC([C@@H]2c3cc4c(cc3[C@H](OC(C)=O)[C@@H]3COC(=O)[C@H]32)OCO4)=CC(=O)C1=O,,,HT-29,0.59 µM
Cc1ccc(C)c2c1[nH]c1cc(Cl)ccc12,,,TZM-bl,7.3 µM
O=C(CCCCBr)O/N=C1\c2ccccc2-c2c1c(N1CCN(c3ccccn3)CC1)nc1ccc(Br)cc21,,MTT,U-937,>20 µg/mL
CCOC(=O)c1ccc2c(c1)nc(-c1ccc(C(=O)O)cc1)n2CCN1CCCOC1,,MTT,Vero cell,>62.5 µg/mL
COc1cc([C@@H]2c3cc4c(cc3[C@H](O)[C@H]3COC(=O)[C@H]23)OCO4)cc(OC)c1OC,,,P-388,0.012 µM
Cc1cccc(C)c1Nc1nc(-c2cccnc2)cs1,,luminescence,VERO,94 µM
O=S(=O)(c1ccccc1)n1cc(/C=N/Nc2nncs2)c2ccccc21,24 h,MTT,Fibroblast L929 cell line,>100 µg/mL
CN(C)c1ccc(C(O)c2cc(C34CC5CC(CC(C5)C3)C4)c3ccccc3n2)cc1,,MTT / absorbance,Mouse fibroblasts,>200 µg/mL
C[C@@H]1CCC2[C@@H](C)[C@@H](OCCN3CCNCC3)O[C@@H]3OC4(C)CCC1[C@@]23OO4,,ATP / luminescence,HEK 293,>28.9 µM
COC1CCCC(c2cc(C(=O)NN)nc3ccccc23)C1,,MTT / absorbance,Mouse fibroblasts,>200 µg/mL
CCOC(=O)c1ccc2c(c1)nc(-c1ccc(N(C)C)cc1)n2CCN1CCCC1=O,,MTT,Vero cell,>62.5 µg/mL
COC(=O)[C@H]1[C@@H]2CON=C2c2cc3c(cc2[C@H]1C1=CC(=O)C(=O)C(OC)=C1)OCO3,,,MEL-28,12 µM
CNC(=O)c1ccc(OC(C)C(=O)N2CCN(C(=O)c3ccccc3)C[C@H]2C)c(OC)c1,,,HEK,>10 µM
Nc1ccn([C@H]2CC[C@@H](CO)O2)c(=O)n1,,,BFU-E,0.05 µM
O=c1ccn([C@H]2C=C[C@@H](CO)O2)c(=O)[nH]1,,,ATH8,107 µM
COc1ccc(Cn2cc(/C=N/Nc3nncs3)c3ccccc32)cc1,24 h,MTT,Fibroblast L929 cell line,>100 µg/mL
CCOC(=O)c1ccc2c(c1)nc(-c1ccc(OC)cc1)n2CCN1CCCC1=O,,MTT,Vero cell,>62.5 µg/mL
CC(=O)OC1C=C2CC[C@H]3[C@@H]4CC[C@H]([C@H](C)C(=O)OC[C@H]5O[C@@H](n6cc(C)c(=O)[nH]c6=O)C[C@@H]5N=[N+]=[N-])[C@@]4(C)CC[C@@H]3[C@@]2(C)CC1,,trypan blue,H9,<5 µg/mL
CO[C@H]1C[C@H](n2cc(C)c(=O)[nH]c2=O)O[C@@H]1CO,,,ATH8,88 µM
FC(F)(F)c1ccccc1Nc1nc(-c2ccc3ccccc3c2)cs1,,luminescence,VERO,56 µM
O=C(NC1N=C(c2ccccc2)c2ccccc2NC1=O)C(O)Cc1ccccc1,,,HEP-2,5.5 µM
Cc1cccc(C)c1Nc1nc(-c2ccccc2S)cs1,,luminescence,VERO,>100 µM
CCCCCCCCCCCCCCCCCCOCCOP(=O)(O)OC[C@H]1O[C@@H](n2cnc(C(N)=O)n2)[C@H](O)[C@@H]1O,,neutral red,Ava5,182 µM
O=C(N[C@H]1N=C(c2ccccc2)c2ccccc2NC1=O)c1cc(F)c(F)cc1F,,,HEP-2,5.8 µM
FC(F)(F)c1ccccc1Nc1nc(-c2ccccn2)cs1,,luminescence,VERO,30 µM
C(=N\Nc1nncs1)/c1cn(Cc2ccccc2)c2ccccc12,24 h,MTT,Fibroblast L929 cell line,>100 µg/mL
CCOC(=O)c1ccc2c(c1)nc(-c1cccc(-c3ccc(F)cc3)c1)n2CCN1CCCOC1,,MTT,Vero cell,>62.5 µg/mL
Cc1cccc(C)c1Nc1nc(-c2ccncn2)cs1,,luminescence,VERO,51 µM
CC(C)(C)OC(=O)N1CCCC1C(=O)O/N=C1\c2ccccc2-c2c1c(-n1ccnc1)nc1ccc(Br)cc21,,MTT,U-937,>20 µg/mL
Cn1cc(/C=N/Nc2nncs2)c2ccccc21,24 h,MTT,Fibroblast L929 cell line,>100 µg/mL
c1ccc(Nc2nc(-c3cnccn3)cs2)nc1,,luminescence,VERO,>50 µM
CC(C)(C)OC(=O)NCC(=O)O/N=C1\c2ccccc2-c2c1c(N1CCN(c3ccccn3)CC1)nc1ccc(Br)cc21,,MTT,U-937,>10 µg/mL
OC(c1ccccc1)c1cc(C23CC4CC(CC(C4)C2)C3)c2ccccc2n1,,MTT / absorbance,Mouse fibroblasts,>200 µg/mL
CCOC(=O)c1ccc2c(c1)nc(-c1ccc(O)cc1O)n2CCN1CCCC1=O,,MTT,Vero cell,>62.5 µg/mL
C[C@H]1[C@H](C)CC[C@]2(C(=O)O)CC[C@]3(C)C(=CC[C@@H]4[C@@]5(C)CC[C@H](O)C(C)(C)[C@@H]5CC[C@]43C)[C@H]12,,MTT,L6 cells,12.7 µM
CC(C)(C)NC(=O)NC1N=C(c2ccccc2)c2ccccc2NC1=O,,,HEP-2,5 µM
Oc1ccccc1-c1csc(Nc2ccccc2C(F)(F)F)n1,,luminescence,VERO,20 µM
CC(O)/C=C/C=C/C=C\CCCCCCCc1cccc(O)c1O,,WST,PC-3,86.31 µM
CCCCn1cc(/C=N/Nc2nncs2)c2ccccc21,24 h,MTT,Fibroblast L929 cell line,>100 µg/mL
CO[C@H]1O[C@@H]2O[C@@]3(C)CC[C@H]4[C@H](C)CC[C@@H]([C@H]1C)[C@@]24OO3,,ATP / luminescence,HEK 293,>26 µM
CC(C)[C@H](C)/C=C/C(C)[C@H]1CCC2C3=C(CC[C@@]21C)[C@@]1(C)CCC(=O)C=C1C=C3,,MTT,L6,27 µM
COc1ccc(C(O)c2cc(C34CC5CC(CC(C5)C3)C4)c3ccccc3n2)cc1,,MTT / absorbance,Mouse fibroblasts,>200 µg/mL
Nc1ncnc2c1ncn2CCOCP(=O)(O)O,,MTT,Feline thymocyte,7 µM
COc1cc([C@@H]2c3cc4c(cc3[C@H](OC(C)=O)[C@@H]3COC(=O)[C@@H]23)OCO4)cc2nccnc12,,,P-388,0.56 µM
CCCCC#CCSc1ccccc1OC(C)=O,,MTT,CrFK,>100 µM
C[C@H]1C(OC(=O)Cc2ccccc2)O[C@@H]2OC3(C)CCC4[C@H](C)CCC1[C@]42OO3,,ATP / luminescence,HEK 293,>26 µM
CC(O)C\C=C/C=C\C=C\CCCCCCc1cccc(O)c1O,,WST,PC-3,61.78 µM
Cc1cc(N)c(C)c2c1[nH]c1c(Cl)cccc12,,,TZM-bl,14.7 µM
CCCc1cc(=O)oc2c3c(c4c(c12)OC(C)(C)C=C4)O[C@@H](C)[C@H](C)[C@@H]3O,,,MM,10–20 µM
Nc1ncnc2c1ncn2[C@H]1C[C@@H](O)[C@@H](CO)O1,,,ATH8,>100 µM